{"source": "PubChem BioAssay AID1259414 – Drosophila RNAi Screening Center – 2018", "test": "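Fly genes that alter Wolbachia amount inside host cells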 (primary screen)", "cell system": "Drosophila JW18 cells infected with Wolbachia", "reagent": "long dsRNA against Drosophila genes, 0.25 µg dsRNA per well of a 384-well plate", "time to read-out": "5 days", "treatment": "cells persistently infected with Wolbachia before knock-down; no added drug", "measured": "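Imaged fluorescence in situ signal for Wolbachia 23S rRNA per DAPI-counted host cell, given as a robust z-score within each plate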", "reading the numbers": "Wolbachia per cell robust z: higher = more Wolbachia per host cell than the plate typical", "rule for the call": "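Active if absolute robust z reaches 1.5 in two or more of three replicates, leaving out multi- or no-target dsRNAs, genes unexpressed in JW18 and A1 wells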", "note": "In all, the deposit lists about 24,000 reagents; this is a random part of those that have a named target and a result. In the full data, about 1,210 (5%) were called active. 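Inactive calls also include excluded dsRNAs with several or no targets, genes unexpressed in JW18, and well A1, regardless of score.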 Entries without a mark were called inactive. The numbers tell different reagents against one gene apart."}
The opening 2 entries, to show the layout:
{"gene":"CG2747","dsRNA no.":1,"Wolbachia per cell robust z, rep 1":0.537,"Wolbachia per cell robust z, rep 2":0.025,"Wolbachia per cell robust z, rep 3":-2.5}
{"gene":"Dap160","dsRNA no.":1,"Wolbachia per cell robust z, rep 1":-5.07,"Wolbachia per cell robust z, rep 2":-0.11,"Wolbachia per cell robust z, rep 3":0.538}

The list itself, repeating the preview:
{"gene":"CG2747","dsRNA no.":1,"Wolbachia per cell robust z, rep 1":0.537,"Wolbachia per cell robust z, rep 2":0.025,"Wolbachia per cell robust z, rep 3":-2.5}
{"gene":"Dap160","dsRNA no.":1,"Wolbachia per cell robust z, rep 1":-5.07,"Wolbachia per cell robust z, rep 2":-0.11,"Wolbachia per cell robust z, rep 3":0.538}
{"gene":"Dap160","dsRNA no.":2,"Wolbachia per cell robust z, rep 1":0.23,"Wolbachia per cell robust z, rep 2":0.68,"Wolbachia per cell robust z, rep 3":-0.0204}
{"gene":"Syx16","dsRNA no.":1,"Wolbachia per cell robust z, rep 1":"2.12 (active)","Wolbachia per cell robust z, rep 2":3.04,"Wolbachia per cell robust z, rep 3":1.56}
{"gene":"Syx16","dsRNA no.":2,"Wolbachia per cell robust z, rep 1":-4.82,"Wolbachia per cell robust z, rep 2":0.443,"Wolbachia per cell robust z, rep 3":0.615}
{"gene":"CG33140","dsRNA no.":1,"Wolbachia per cell robust z, rep 1":-6.43,"Wolbachia per cell robust z, rep 2":-0.265,"Wolbachia per cell robust z, rep 3":0.772}
{"gene":"CG33140","dsRNA no.":2,"Wolbachia per cell robust z, rep 1":0.413,"Wolbachia per cell robust z, rep 2":0.844,"Wolbachia per cell robust z, rep 3":0.995}
{"gene":"CG7214","dsRNA no.":1,"Wolbachia per cell robust z, rep 1":1.99,"Wolbachia per cell robust z, rep 2":1.59,"Wolbachia per cell robust z, rep 3":0.562}
{"gene":"CG7214","dsRNA no.":2,"Wolbachia per cell robust z, rep 1":0.113,"Wolbachia per cell robust z, rep 2":0.563,"Wolbachia per cell robust z, rep 3":0.887}
{"gene":"CG7214","dsRNA no.":3,"Wolbachia per cell robust z, rep 1":-1.37,"Wolbachia per cell robust z, rep 2":-1.5,"Wolbachia per cell robust z, rep 3":-1.15}
{"gene":"sima","dsRNA no.":1,"Wolbachia per cell robust z, rep 1":0.412,"Wolbachia per cell robust z, rep 2":-1.31,"Wolbachia per cell robust z, rep 3":-0.678}
{"gene":"sima","dsRNA no.":2,"Wolbachia per cell robust z, rep 1":0.0806,"Wolbachia per cell robust z, rep 2":0.619,"Wolbachia per cell robust z, rep 3":-0.952}
{"gene":"sima","dsRNA no.":3,"Wolbachia per cell robust z, rep 1":-0.131,"Wolbachia per cell robust z, rep 2":0.907,"Wolbachia per cell robust z, rep 3":-0.919}
{"gene":"sima","dsRNA no.":4,"Wolbachia per cell robust z, rep 1":0.647,"Wolbachia per cell robust z, rep 2":0.891,"Wolbachia per cell robust z, rep 3":-0.248}
{"gene":"kis","dsRNA no.":1,"Wolbachia per cell robust z, rep 1":-0.486,"Wolbachia per cell robust z, rep 2":-0.772,"Wolbachia per cell robust z, rep 3":1.18}
{"gene":"kis","dsRNA no.":2,"Wolbachia per cell robust z, rep 1":0.201,"Wolbachia per cell robust z, rep 2":-1.91,"Wolbachia per cell robust z, rep 3":0.256}
{"gene":"kis","dsRNA no.":3,"Wolbachia per cell robust z, rep 1":1.15,"Wolbachia per cell robust z, rep 2":0.226,"Wolbachia per cell robust z, rep 3":-11.6}
{"gene":"kis","dsRNA no.":4,"Wolbachia per cell robust z, rep 1":0.353,"Wolbachia per cell robust z, rep 2":0.0435,"Wolbachia per cell robust z, rep 3":0.369}
{"gene":"CG30349","dsRNA no.":1,"Wolbachia per cell robust z, rep 1":0.229,"Wolbachia per cell robust z, rep 2":0.0913,"Wolbachia per cell robust z, rep 3":-0.373}
{"gene":"CG30349","dsRNA no.":2,"Wolbachia per cell robust z, rep 1":1.41,"Wolbachia per cell robust z, rep 2":-0.145,"Wolbachia per cell robust z, rep 3":-0.759}
{"gene":"CG30349","dsRNA no.":3,"Wolbachia per cell robust z, rep 1":-0.237,"Wolbachia per cell robust z, rep 2":0.363,"Wolbachia per cell robust z, rep 3":-0.137}
{"gene":"CG13693","dsRNA no.":1,"Wolbachia per cell robust z, rep 1":0.345,"Wolbachia per cell robust z, rep 2":0.909,"Wolbachia per cell robust z, rep 3":1.09}
{"gene":"CG13693","dsRNA no.":2,"Wolbachia per cell robust z, rep 1":0.685,"Wolbachia per cell robust z, rep 2":0.581,"Wolbachia per cell robust z, rep 3":-0.0478}
{"gene":"fzr2","dsRNA no.":1,"Wolbachia per cell robust z, rep 1":-0.403,"Wolbachia per cell robust z, rep 2":-0.222,"Wolbachia per cell robust z, rep 3":-1.11}
